Results of unrelated studies side by side (data: NIAID ChemDB).

Common to all: whole-cell or culture tests; organism: Mycobacterium avium intracellulare

Conditions beyond the fields shown may differ between rows. MIC50, MIC90 and the like: level of inhibition, or share of isolates inhibited. Blank or dashed fields: not listed here.

smiles | measure | strain or isolate | result
OCCN1CCN(CC/C=C2/c3ccccc3Sc3ccc(Cl)cc32)CC1 | MIC | E 48067 | 12.5 µg/mL
CC1COc2c(N3CCN(C)CC3)c(F)cc3c(=O)c(C(=O)O)cn1c23 | MIC50 | 31 strains | 50 µg/mL
Clc1ccc2c(c1)nc1cc(Nc3ccccc3)c(=NC3CCCCC3)cc-1n2-c1ccccc1 | MIC | 98562 | 1 µg/mL
CC[C@H]1OC(=O)[C@H](C)[C@@H](OC(=O)Cc2cccnc2)[C@H](C)[C@@H](O[C@@H]2O[C@H](C)C[C@H](N(C)C)[C@H]2O)C(C)(O)C[C@@H](C)/C(=N\OCCCOc2ccccc2)[C@H](C)[C@@H](O)[C@]1(C)O | MIC | 20066 (clarithromycin-susceptible) | 3.13 µg/mL
COc1cc(NC(C)CCCN)c2nc(C(C)(C)C)cc(C)c2c1Oc1cccc(C(F)(F)F)c1 | MBC | - | 5 µg/mL
CN[C@@H]1[C@H](O[C@H]2[C@H](O[C@H]3[C@H](O)[C@@H](O)[C@H](N=C(N)N)[C@@H](O)[C@@H]3N=C(N)N)O[C@@H](C)[C@]2(O)C=O)O[C@@H](CO)[C@H](O)[C@H]1O | MIC | N-475 (HIV-) | 0.25 µg/mL
CO[C@H]1/C=C/O[C@@]2(C)Oc3c(C)c(O)c4c(O)c(c(/C=N/N5CCN(C6CCCC6)CC5)c(O)c4c3C2=O)NC(=O)/C(C)=C\C=C\[C@H](C)[C@H](O)[C@@H](C)[C@@H](O)[C@@H](C)[C@H](OC(C)=O)[C@@H]1C | MIC | 109 | 0.25 µg/mL
COc1ccc2c(c1)N(C[C@H](C)CN(C)C)c1ccccc1S2 | MIC | R 1631 | 50 µg/mL
CC[C@H]1OC(=O)[C@H](C)[C@@H](O[C@H]2C[C@@](C)(OC)[C@@H](OC(C)=O)[C@H](C)O2)[C@H](C)[C@@H](O[C@@H]2O[C@H](C)C[C@H](N(C)C)[C@H]2OC(=O)NNCc2ccccc2)C(C)(O)C[C@@H](C)/C(=N\OCCCC2CCCCC2)[C@H](C)[C@@H](O)[C@]1(C)O | MIC | 20066 (clarithromycin-susceptible) | 1.56 µg/mL
C[C@@H](O)[C@H]1C(=O)N2C(C(=O)O)=C(SCCN=CN)C[C@H]12 | MIC | CIPT 140310021 | 5 µg/mL
CN1CCN(c2c(F)cc3c(=O)c(C(=O)O)cn(CCF)c3c2F)CC1 | MIC50 | - | 25 µg/mL
CO[C@H]1/C=C/O[C@@]2(C)Oc3c(C)c(O)c4c(O)c(c5c(c4c3C2=O)NC2(CCN(CC(C)C)CC2)N=5)=NC(=O)/C(C)=C\C=C\[C@H](C)[C@H](O)[C@@H](C)[C@@H](O)[C@@H](C)[C@H](OC(C)=O)[C@@H]1C | MIC | N-499 (HIV-) | 0.1 µg/mL
CC[C@H]1OC(=O)[C@H](C)[C@@H](O[C@H]2C[C@@](C)(OC)[C@@H](OC(C)=O)[C@H](C)O2)[C@H](C)[C@@H](O[C@@H]2O[C@H](C)C[C@H](N(C)C)[C@H]2O)C(C)(O)C[C@@H](C)/C(=N\OCCSc2ccccc2)[C@H](C)[C@@H](O)[C@]1(C)O | MIC | 20066 (clarithromycin-susceptible) | 3.13 µg/mL
OCCN1CCN(CCC=C2c3ccccc3Sc3ccc(Cl)cc32)CC1 | MIC | R 6550 | 12.5 µg/mL
CCO/N=C1\[C@H](C)CC(C)(O)[C@H](O[C@@H]2O[C@H](C)C[C@H](N(C)C)[C@H]2O)[C@@H](C)[C@H](OC2C[C@@](C)(OC)[C@@H](O)[C@H](C)O2)[C@@H](C)C(=O)O[C@H](CC)[C@@](C)(O)[C@H](O)[C@H]1C | MIC | 20066 (clarithromycin-susceptible) | 6.25 µg/mL
CC[C@H]1OC(=O)[C@H](C)[C@@H](OC2C[C@@](C)(OC)[C@@H](O)[C@H](C)O2)[C@H](C)[C@@H](O[C@@H]2O[C@H](C)C[C@H](N(C)C)[C@H]2O)C(C)(O)C[C@@H](C)/C(=N\OCCCC2CCCCC2)[C@H](C)[C@@H](O)[C@]1(C)O | MIC | 20066 | 6.25 µg/mL
Cc1onc(-c2ccccc2Cl)c1C(=O)N[C@@H]1C(=O)N2[C@@H]1SC(C)(C)[C@@H]2C(=O)O | MIC | CIPT 140310054 | >100 µg/mL
CC[C@H]1OC(=O)[C@H](C)[C@@H](O[C@H]2C[C@@](C)(OC)[C@@H](OC(C)=O)[C@H](C)O2)[C@H](C)[C@@H](O[C@@H]2O[C@H](C)C[C@H](N(C)C)[C@H]2OC(=O)NNCc2cccnc2)C(C)(O)C[C@@H](C)/C(=N\OCCCC2CCCCC2)[C@H](C)[C@@H](O)[C@]1(C)O | MIC | 20066 (clarithromycin-susceptible) | 0.78 µg/mL
CC[C@H]1OC(=O)[C@H](C)[C@@H](OC2C[C@@](C)(OC)[C@@H](O)[C@H](C)O2)[C@H](C)[C@@H](O[C@@H]2O[C@H](C)C[C@H](N(C)C)[C@H]2O)C(C)(O)C[C@@H](C)/C(=N\OCCCCOc2ccccc2)[C@H](C)[C@@H](O)[C@]1(C)O | MIC | 20066 | 3.13 µg/mL
CC[C@H]1OC(=O)[C@H](C)[C@@H](OC2C[C@@](C)(OC)[C@@H](O)[C@H](C)O2)[C@H](C)[C@@H](O[C@@H]2O[C@H](C)C[C@H](N(C)C)[C@H]2O)C(C)(O)C[C@@H](C)/C(=N\OCc2ccccc2)[C@H](C)[C@@H](O)[C@]1(C)O | MIC | 20066 (clarithromycin-susceptible) | 6.25 µg/mL
CC[C@H]1OC(=O)[C@H](C)[C@@H](OC2C[C@@](C)(OC)[C@@H](O)[C@H](C)O2)[C@H](C)[C@@H](O[C@@H]2O[C@H](C)C[C@H](N(C)C)[C@H]2O)C(C)(O)C[C@@H](C)/C(=N\OCC2CCCCC2)[C@H](C)[C@@H](O)[C@]1(C)O | MIC | 20066 | 6.25 µg/mL
NC[C@H]1O[C@H](O[C@H]2[C@H](O)[C@@H](O[C@H]3O[C@H](CO)[C@@H](O)[C@H](N)[C@H]3O)[C@H](N)C[C@@H]2N)[C@H](O)[C@@H](O)[C@@H]1O | MIC | CIPT 140310021 | 10 µg/mL
CC[C@H]1OC(=O)[C@H](C)[C@@H](O[C@H]2C[C@@](C)(OC)[C@@H](O)[C@H](C)O2)[C@H](C)[C@@H](O[C@@H]2O[C@H](C)C[C@H](N(C)C)[C@H]2O)[C@](C)(OC)C[C@@H](C)C(=O)[C@H](C)[C@@H](O)[C@]1(C)O | MIC | N-919 (HIV-) | 0.125 µg/mL
CC[C@H]1OC(=O)[C@H](C)[C@@H](OC2C[C@@](C)(OC)[C@@H](O)[C@H](C)O2)[C@H](C)[C@@H](O[C@@H]2O[C@H](C)C[C@H](N(C)C)[C@H]2O)C(C)(O)C[C@@H](C)/C(=N\OCCc2ccccc2)[C@H](C)[C@@H](O)[C@]1(C)O | MIC | 20066 | 1.56 µg/mL
CN(C)CCCN1c2ccccc2Sc2ccc(Cl)cc21 | MIC | R 1631 | 25 µg/mL
CC[C@H]1OC(=O)[C@H](C)[C@@H](OC2C[C@@](C)(OC)[C@@H](O)[C@H](C)O2)[C@H](C)[C@@H](O[C@@H]2O[C@H](C)C[C@H](N(C)C)[C@H]2O)C(C)(O)C[C@@H](C)/C(=N\OCC2CCCCC2)[C@H](C)[C@@H](O)[C@]1(C)O | MIC | 20066 (clarithromycin-susceptible) | 6.25 µg/mL
CO[C@H]1/C=C/O[C@@]2(C)Oc3c(C)c(O)c4c(=O)c(c5oc6cc(N7CCN(CC(C)C)CC7)cc(=O)c6nc5c4c3=C2O)NC(=O)/C(C)=C\C=C\[C@H](C)[C@H](O)[C@@H](C)[C@@H](O)[C@@H](C)[C@H](OC(C)=O)[C@@H]1C | MIC | N-475 (HIV-) | ≤0.0125 µg/mL
CC[C@H]1OC(=O)[C@H](C)[C@@H](O[C@H]2C[C@@](C)(OC)[C@@H](OC(C)=O)[C@H](C)O2)[C@H](C)[C@@H](O[C@@H]2O[C@H](C)C[C@H](N(C)C)[C@H]2O)C(C)(O)C[C@@H](C)/C(=N\OCc2ccccc2)[C@H](C)[C@@H](O)[C@]1(C)O | MIC | 20066 (clarithromycin-susceptible) | 3.13 µg/mL
CC1(C)S[C@@H]2[C@H](NC(=O)C(C(=O)O)c3ccccc3)C(=O)N2[C@H]1C(=O)O | MIC | CIPT 140310019 | 25 µg/mL
CC(=O)NC[C@H]1CN(c2ccc(N3CCN(c4ccc([N+](=O)[O-])s4)CC3)c(F)c2)C(=O)O1 | MIC | ATCC 13950 | 16 µg/mL

Repeating the final 3 entries:

CC[C@H]1OC(=O)[C@H](C)[C@@H](O[C@H]2C[C@@](C)(OC)[C@@H](OC(C)=O)[C@H](C)O2)[C@H](C)[C@@H](O[C@@H]2O[C@H](C)C[C@H](N(C)C)[C@H]2O)C(C)(O)C[C@@H](C)/C(=N\OCc2ccccc2)[C@H](C)[C@@H](O)[C@]1(C)O ; measure: MIC ; strain or isolate: 20066 (clarithromycin-susceptible) ; result: 3.13 µg/mL
CC1(C)S[C@@H]2[C@H](NC(=O)C(C(=O)O)c3ccccc3)C(=O)N2[C@H]1C(=O)O ; measure: MIC ; strain or isolate: CIPT 140310019 ; result: 25 µg/mL
CC(=O)NC[C@H]1CN(c2ccc(N3CCN(c4ccc([N+](=O)[O-])s4)CC3)c(F)c2)C(=O)O1 ; measure: MIC ; strain or isolate: ATCC 13950 ; result: 16 µg/mL